Data reported in publication PMC11850406, “Large-scale screening of HIV-1 T-cell epitopes restricted by 12 prevalent HLA-A allotypes in Northeast Asia and universal detection of HIV-1-specific CD8^+ T cells” (Frontiers in Microbiology, 2025).

Target: HLA-A2402 (Homo sapiens, UniProt P04439, D101N/D140Y/D185E/E176V/E190D/F33S/G103R/G107R/I119L/I121M/I306V/K335N/L105A/L180Q/L300P/N151K/N90K/Q86E/Q94H/R106L/R138H/R89G/T104I/T345S/V100E/W191G/Y123F)
Test: cell-based
Assay type: binding

CC[C@H](C)[C@H](NC(=O)[C@H](CO)NC(=O)[C@@H]1CCCN1C(=O)[C@@H](NC(=O)[C@@H](NC(=O)[C@H](Cc1ccccc1)NC(=O)[C@H](C)NC(=O)[C@@H](NC(=O)[C@H](Cc1ccc(O)cc1)NC(=O)[C@@H](N)CCCCN)[C@@H](C)O)[C@@H](C)O)[C@@H](C)CC)C(=O)O [Peptide P65]
IC50: < 5 µM
inhibition at 5 µM (24 h, read-out: 5-μM inhibition (%)): 93.1%
inhibition at 15 µM (24 h, read-out: 15-μM inhibition (%)): 97.8%
